A mixed list of measured activities; the numbers were collected in NIAID ChemDB.

Shared fields: target-level tests; agent: HIV-1; target: Reverse transcriptase

ICn: concentration for n% inhibition. Lines come from different laboratories, so protocols vary. Two numbers with a dash give a range or band. An empty or dashed field is not shown.

Cc1nnc2c3ccccc3c(N3CCc4ccc(C(=O)O)cc4C3)nn12 ; strain or isolate: IIIB ; endpoint: IC50 ; read by: RT activity / fluorescence ; result: 57.5 µM
CSc1ncc(C(=O)NCCCn2ccnc2)c(Nc2ccc3[nH]ncc3c2)n1 ; endpoint: IC50 ; read by: ELISA ; result: ~0.1 µg/mL
NS(=O)(=O)c1ccc(NC(=O)CSc2nnc(Br)n2-c2ccc(C3CC3)cc2OC(F)(F)F)c(Cl)c1 ; changes: RT-Y181C ; endpoint: IC50 ; read by: nucleotide incorporation / radiometric ; result: <0.05 µM
Nc1nc(=O)n([C@H]2CS[C@@H](COP(=O)(O)OP(=O)(O)OP(=O)(O)O)O2)cc1F ; endpoint: Ki ; result: 2.5 µM
CCc1ccc(-n2c(Br)nnc2SCC(=O)Nc2ccc(C(=O)N3CCC(O)CC3)cc2Cl)c2ccccc12 ; endpoint: IC50 ; read by: nucleotide incorporation / radiometric ; result: <0.05 µM
N#Cc1cc(Cl)cc(Oc2cc(OCc3ncc(-c4ccc(Cl)cc4)o3)ccc2Cl)c1 ; changes: Y181C ; endpoint: IC50 ; read by: scintillation proximity ; result: 0.17 µM
CSc1ncc(C(=O)NCCN2CCOCC2)c(Nc2ccc3cn[nH]c3c2)n1 ; endpoint: IC50 ; read by: ELISA ; result: ~0.1 µg/mL
Cc1cc(C)cc(S(=O)(=O)c2c(C(=O)NC(C)C(N)=O)[nH]c3ccc(Cl)cc23)c1 ; changes: NNRTI-resistant (RT K103N) ; endpoint: IC50 ; read by: RT activity ; result: 0.782 µM
Cc1cccc(CS(=O)(=O)c2cccc[n+]2[O-])c1 ; endpoint: IC50 ; read by: nucleotide incorporation / radiometric ; result: 161 µg/mL
Cc1cc(S(N)(=O)=O)ccc1NC(=O)CSc1nnc(Br)n1-c1ccc2c3c(cccc13)CC2 ; changes: RT-Y188L ; endpoint: IC50 ; read by: nucleotide incorporation / radiometric ; result: >0.1 µM
N#CC1C=Cc2ccccc2N1C(=O)Oc1ccccc1 ; endpoint: IC50 ; read by: nucleotide incorporation ; result: >50 µM
Nc1nc2c(ncn2[C@H]2CC[C@@H](COP(=O)(O)OP(=O)(O)OP(=O)(O)O)O2)c(=O)[nH]1 ; endpoint: IC50 ; read by: radiometric ; result: 0.42 µM
CCCOC(=O)N1c2ccccc2C=CC1C#N ; changes: RT-P236L ; endpoint: IC50 ; read by: nucleotide incorporation ; result: 3.4 µM
Cc1occc1C(=S)Nc1ccc(Cl)c(OCCC(C)C)c1 ; endpoint: IC50 ; read by: nucleotide incorporation ; result: 0.133 µM
Cc1cc(N/N=C/c2occc2CO)nc2ccccc12 ; endpoint: IC50 ; read by: nucleotide incorporation ; result: 1.06 µM
CSc1ncc(C(N)=O)c(Nc2ccc3cn[nH]c3c2)n1 ; endpoint: IC50 ; read by: ELISA ; result: ~0.1 µg/mL
COc1ccc2c(c1)C=CC(C#N)N2C(=O)OC(C)C ; endpoint: IC50 ; read by: nucleotide incorporation ; result: 17.5 µM
COc1ccc2c(N/N=C/c3cccc([N+](=O)[O-])c3)cc(C)nc2c1 ; endpoint: IC50 ; read by: nucleotide incorporation ; result: 0.45 µM
NC(=O)c1[nH]c2ccc(Cl)cc2c1S(=O)(=O)c1ccccc1 ; changes: RT-K103N ; endpoint: IC50 ; read by: nucleotide incorporation / radiometric ; result: 0.005 µM
CCOC(=O)N1c2ccc(OC)cc2C=CC1C#N ; endpoint: IC50 ; read by: nucleotide incorporation ; result: 26.9 µM
N#Cc1cc(Cl)cc(Oc2cc(OCc3nnc(-c4ccc(Cl)cc4)o3)ccc2Cl)c1 ; changes: Y181C ; endpoint: IC50 ; read by: scintillation proximity ; result: 0.091 µM
CCc1ccc(-n2c(Br)nnc2SCC(=O)Nc2ccc(C(=O)NCC(O)CO)cc2Cl)c2ccccc12 ; endpoint: IC50 ; read by: nucleotide incorporation / radiometric ; result: <0.05 µM
Cc1cc(C)cc(S(=O)(=O)c2c(C(=O)NC(C)C(N)=O)[nH]c3ccc(Br)cc23)c1 ; changes: WT ; endpoint: IC50 ; read by: RT activity ; result: 0.028 µM
CC(C)OC(=O)N1c2ccc([N+](=O)[O-])cc2C=CC1C#N ; changes: RT-P236L ; endpoint: IC50 ; read by: nucleotide incorporation ; result: 8.1 µM
Oc1ccc2c(c1)CN(c1nn3c(C4CC4)nnc3c3ccccc13)CC2 ; strain or isolate: IIIB ; endpoint: IC90 ; read by: RT activity / fluorescence ; result: 2.7 µM
CC(C)=CCC/C(C)=C/CC/C(C)=C/CC/C(C)=C/CC/C(C)=C/CC/C(C)=C/Cc1cc(O)ccc1O ; endpoint: IC90 ; read by: nucleotide incorporation ; result: 5.4 µM
CC(C)COC(=O)N1c2ccccc2C=CC1C#N ; endpoint: IC50 ; read by: nucleotide incorporation ; result: 7.8 µM
COc1ccc(-c2noc(COc3ccc(Cl)c(Oc4cc(Cl)cc(C#N)c4)c3)n2)cc1 ; changes: Y181C ; endpoint: IC50 ; read by: scintillation proximity ; result: 0.17 µM
NS(=O)(=O)c1ccc(NC(=O)CSc2nnc(Br)n2-c2ccc(C3CC3)c3c2CCCC3)c(Cl)c1 ; endpoint: IC50 ; read by: nucleotide incorporation / radiometric ; result: <0.05 µM
COc1cc(/C=N/Nc2cc(C)nc3cc(C(F)(F)F)ccc23)cc(OC)c1OC ; endpoint: IC50 ; read by: nucleotide incorporation ; result: 1.32 µM
COc1ccc2c(c1)C=CC(C#N)N2C(=O)c1ccccc1 ; endpoint: IC50 ; read by: nucleotide incorporation ; result: >50 µM
Cc1ccc(-n2c(SCC(=O)Nc3ccc(S(=O)(=O)NCCN4CCOCC4)cc3Cl)nnc2C(F)F)c2c1CCCC2 ; changes: RT-Y181C ; endpoint: IC50 ; read by: nucleotide incorporation / radiometric ; result: 0.05–0.1 µM
CC1=C(C(=O)Nc2ccc(Cl)c(C(=O)OC(C)C)c2)SCCO1 ; endpoint: IC50 ; read by: nucleotide incorporation ; result: 0.18 µM
CCn1cc(C(=O)O)c(=O)c2cc(F)c(N3CCN(c4ccccc4OC)CC3)c(OC(F)F)c21 ; endpoint: IC50 ; read by: nucleotide incorporation ; result: >250 µM
CCOc1ccc2c(N/N=C/c3ccc(N(C)C)cc3)cc(C)nc2c1 ; endpoint: IC50 ; read by: nucleotide incorporation ; result: 0.82 µM
COc1ccc2c(C3CC3)ccc(-n3c(Br)nnc3SCC(=O)Nc3ccc(S(N)(=O)=O)cc3Cl)c2c1 ; changes: RT-Y181C ; endpoint: IC50 ; read by: nucleotide incorporation / radiometric ; result: <0.05 µM
Cc1nnc2c3ccccc3c(N3CCc4ccccc4C3)nn12 ; strain or isolate: KER2008 ; endpoint: IC50 ; read by: RT activity / fluorescence ; result: 0.49 µM
CC[C@H]1C(=O)Nc2ccc(F)cc2N1C(=O)OC(C)C ; endpoint: IC50 ; read by: radiometric ; result: 0.04 µM
COC(=O)[C@@H](NC(=O)c1ccc(NC(=O)CSc2nnc(Br)n2-c2ccc(C3CC3)c3ccccc23)c(Cl)c1)C(C)C ; endpoint: IC50 ; read by: nucleotide incorporation / radiometric ; result: <0.05 µM
CSc1ncc(C(=O)NCCN2CCOCC2)c(Nc2ccc3[nH]ncc3c2)n1 ; endpoint: IC50 ; read by: ELISA ; result: ~0.1 µg/mL
Cc1sccc1C(=S)Nc1ccc(Cl)c(OCC(C)(C)C)c1 ; endpoint: IC50 ; read by: radiometric ; result: 14.52 µM
CCc1ccc(-n2c(Br)nnc2SCC(=O)Nc2ccc(C(=O)NCC3CCNCC3)cc2Cl)c2ccccc12 ; endpoint: IC50 ; read by: nucleotide incorporation / radiometric ; result: >0.1 µM
N#Cc1cc(Cl)cc(Oc2cc(OCc3nc(-c4ccc(Cl)cc4)no3)ccc2Cl)c1 ; changes: Y181C ; endpoint: IC50 ; read by: scintillation proximity ; result: 3.1 µM
Cc1cc(C2CC2)c2ccccc2c1-n1c(Br)nnc1SCC(=O)Nc1ccc(C(=O)O)cc1Cl ; changes: RT-Y188L ; endpoint: IC50 ; read by: nucleotide incorporation / radiometric ; result: >0.1 µM
COc1ccc2c(c1)N(C(=O)OC(C)C)[C@@H](CSC)C(=S)N2 ; changes: RT-W229Y ; endpoint: IC50 ; read by: radiometric ; result: 0.02 µM
CCc1ccc(-n2c(Br)nnc2SCC(=O)Nc2ccc(S(N)(=O)=O)cc2Cl)c2ccccc12 ; changes: RT-Y188L ; endpoint: IC50 ; read by: nucleotide incorporation / radiometric ; result: 0.05–0.1 µM
CC(C)=CCOc1cc(NC(=S)c2ccoc2C)ccc1Cl ; changes: RT-W229Y ; endpoint: IC50 ; read by: nucleotide incorporation ; result: 0.48 µM
O=C(CSc1nnc(Br)n1-c1ccc(C2CC2)cc1Cl)Nc1ccc(S(=O)(=O)O)cc1Cl ; changes: RT-Y188L ; endpoint: IC50 ; read by: nucleotide incorporation / radiometric ; result: >0.1 µM
CC/C(=N\Nc1cc(C)nc2ccccc12)n1c2ccccc2c2ccccc21 ; endpoint: IC50 ; read by: nucleotide incorporation ; result: 1.47 µM
Cc1cc(C2CC2)cc(Cl)c1-n1c(Br)nnc1SCC(=O)Nc1ccc(C(=O)O)cc1Cl ; changes: RT-Y181C ; endpoint: IC50 ; read by: nucleotide incorporation / radiometric ; result: <0.05 µM
N#CC1C=Cc2ccccc2N1C(=O)OC1CCCC1 ; endpoint: IC50 ; read by: nucleotide incorporation ; result: >50 µM
N#Cc1cccc2c(-n3c(SCC(=O)Nc4ccc(S(N)(=O)=O)cc4Cl)nnc3C(F)F)cccc12 ; changes: RT-Y181C ; endpoint: IC50 ; read by: nucleotide incorporation / radiometric ; result: >0.1 µM
CSc1ncc(C(=O)N(C)CCO)c(Nc2ccc3cn[nH]c3c2)n1 ; endpoint: IC50 ; read by: ELISA ; result: ~0.1 µg/mL
CCCCCCNC(=O)c1ccc(NC(=O)CSc2nnc(Br)n2-c2ccc(CC)c3ccccc23)c(Cl)c1 ; changes: RT-Y181C ; endpoint: IC50 ; read by: nucleotide incorporation / radiometric ; result: <0.05 µM
CCOC(=O)CSc1cc(NC(=S)c2ccoc2C)ccc1Cl ; endpoint: IC50 ; read by: nucleotide incorporation ; result: 1.811 µM
Cc1cc(C2CC2)c2ccccc2c1-n1c(Br)nnc1SCC(=O)Nc1ccc(S(N)(=O)=O)cc1Cl ; changes: RT-Y181C ; endpoint: IC50 ; read by: nucleotide incorporation / radiometric ; result: <0.05 µM
COc1ccc2c(N/N=C/c3ccc(O)cc3)ccnc2c1 ; endpoint: IC50 ; read by: nucleotide incorporation ; result: 0.09 µM
CCc1ccc(-n2c(Br)nnc2SCC(=O)Nc2ccc(C(=O)N[C@@H](CO)C(=O)OC)cc2Cl)c2ccccc12 ; changes: RT-Y181C ; endpoint: IC50 ; read by: nucleotide incorporation / radiometric ; result: <0.05 µM
CSc1ncc(C(=O)N(C)CCO)c(Nc2ccc3[nH]ncc3c2)n1 ; endpoint: IC50 ; read by: ELISA ; result: ~0.1 µg/mL
O=C(CSc1nnc(Br)n1-c1ccc(C2CC2)cc1Cl)Nc1ccc(C(=O)O)cc1Cl ; changes: RT-Y188L ; endpoint: IC50 ; read by: nucleotide incorporation / radiometric ; result: >0.1 µM
COc1ccc2c(c1)CN(c1nn3c(-c4cccs4)nnc3c3ccccc13)CC2 ; strain or isolate: KER2008 ; endpoint: IC50 ; read by: RT activity / fluorescence ; result: 30.4 µM
CCOC(=O)CCNC(=O)c1ccc(NC(=O)CSc2nnc(Br)n2-c2ccc(C3CC3)c3ccccc23)c(Cl)c1 ; changes: RT-Y188L ; endpoint: IC50 ; read by: nucleotide incorporation / radiometric ; result: <0.05 µM
CC(C)(O/N=C(/C(=O)N[C@@H]1C(=O)N2C(C(=O)[O-])=C(C[n+]3ccccc3)CS[C@H]12)c1csc(N)n1)C(=O)O ; endpoint: IC50 ; read by: radiometric ; result: >100 µg/mL

A second listing of 5 rows from above:

SMILES | changes | strain or isolate | endpoint | read by | result
COc1ccc2c(N/N=C/c3cccc([N+](=O)[O-])c3)cc(C)nc2c1 | - | - | IC50 | nucleotide incorporation | 0.45 µM
N#Cc1cc(Cl)cc(Oc2cc(OCc3nc(-c4ccc(Cl)cc4)no3)ccc2Cl)c1 | Y181C | - | IC50 | scintillation proximity | 3.1 µM
COC(=O)[C@@H](NC(=O)c1ccc(NC(=O)CSc2nnc(Br)n2-c2ccc(C3CC3)c3ccccc23)c(Cl)c1)C(C)C | - | - | IC50 | nucleotide incorporation / radiometric | <0.05 µM
COc1ccc(-c2noc(COc3ccc(Cl)c(Oc4cc(Cl)cc(C#N)c4)c3)n2)cc1 | Y181C | - | IC50 | scintillation proximity | 0.17 µM
CCc1ccc(-n2c(Br)nnc2SCC(=O)Nc2ccc(S(N)(=O)=O)cc2Cl)c2ccccc12 | RT-Y188L | - | IC50 | nucleotide incorporation / radiometric | 0.05–0.1 µM